Pooled drug test results. Numbers come from NIAID ChemDB, via PubChem.

All rows: tests in culture; species: Pneumocystis carinii; measure: EC50

a–b is a range or a potency band.

SMILES,cell line,conditions,value
CN(C)c1nc(N)c(C(=O)N=C(N)N)nc1Cl,,,>100 µM
N=C(N)c1ccc(OC/C=C/COc2ccc(C(=N)N)cc2)cc1,,,<0.2 µM
COc1cc(NC(C)CCCN2C(=O)[C@H](C)NC2(C)C)c2ncccc2c1,,72 h,226 µM
CCc1c(O)c(=O)ccn1CC,Human fibroblasts,7 d,>18 µM
CC(C)(C)CN=C(N)c1ccc(N2CCCN(c3ccc(C(N)=NCC(C)(C)C)cc3)CC2)cc1,,,>1 µM
CCC(C)n1ncn(-c2ccc(N3CCN(c4ccc(OC[C@H]5CO[C@](Cn6cncn6)(c6ccc(Cl)cc6Cl)O5)cc4)CC3)cc2)c1=O,WI-38,10 d,>10 µg/mL
NC(=NCCCO)c1ccc(N2CCCN(c3ccc(C(N)=NCCCO)cc3)CC2)cc1,,,>1 µM
CCc1c(O)c(=O)ccn1CCOC,Human fibroblasts,7 d,>18 µM
CC(C(O)(Cn1cncn1)c1ccc(F)cc1F)S(C)(=O)=O,WI-38,10 d,>10 µg/mL
C(=C/COc1ccc(C2=NCCN2)cc1)/COc1ccc(C2=NCCN2)cc1,,,<0.2 µM
CC(=O)N(O)CCCCCNC(=O)CCC(=O)N(O)CCCCCNC(=O)CCC(=O)N(O)CCCCCN,Human fibroblasts,7 d,<7.5 µM
c1ccc(CNCCCNCCCCCCCNCCCNCc2ccccc2)cc1,,,3–30 µM
CC(C)CN=C(N)c1ccc(N2CCCN(c3ccc(C(N)=NCC(C)C)cc3)CC2)cc1,,,>1 µM
N=C(N)c1ccc(OC[C@@H](O)[C@@H](O)COc2ccc(C(=N)N)cc2)cc1,,,>0.2 µM
Clc1ccc(COC(Cn2ccnc2)c2ccc(Cl)cc2Cl)c(Cl)c1,WI-38,10 d,<10 µg/mL

Conditions beyond the fields shown may differ between rows. ECn: concentration that inhibits the pathogen or its effect by n%. Blank or dashed fields: not listed here.